According to publication PMC4094919, “Screening and hit evaluation of a chemical library against blood-stage Plasmodium falciparum” (Malaria Journal, 2014):

system: P. falciparum NF54 strain; test: P. falciparum NF54 growth assay, 3H-hypoxanthine incorporation (hit validation); assay type: cell-based, Plasmodium falciparum; conditions: Ligand Efficiency Index = pEC50/(MW/1000)
Procedure: Synthesized compounds were tested in an alternative assay, in which ^3H-hypoxanthine incorporation was measured in the chloroquine-sensitive strain NF54 (Values were measured in duplicate, 12 points/EC50).
Cultivation of Plasmodium falciparum: Plasmodium falciparum strain NF54 was obtained from the Research and Reference Reagent Resource Center (MR4) (Manassas, VA, USA). The two strains were maintained in vitro by a modification of the method of Trager and Jensen. Cultures were maintained in A positive (A^+) human erythrocytes suspended at 5% hematocrit in complete medium. […] Parasite growth and morphology were observed daily using thin smears at 100X (oil immersion) magnification following staining with Giemsa stain.
Plasmodium falciparum growth assay: The protocol assesses the compound efficacy against the growth of P. falciparum in vitro.
All cultures used in the study are albumax II adopted. […]
Following the incubation period, the plates were harvested with a FilterMate cell harvester (Perkin Elmer) onto unifilter-96 GF/B plates, washed with distilled water to remove excess radiochemical and plates were kept for drying 37°C overnight or 60°C for 1 hr. Fifty µL of Microscint scintillation cocktail (Microscint-High Efficiency LSC-Cocktail; Perkin Elmer) added in the unifilter-96 GF/B plates and kept for 15-20 min. The plates were counted in a Top Count NXT microplate scintillation and luminescence counter (Perkin Elmer). The mean values for [^3H]-hypoxanthine incorporation in parasitized control and non-parasitized control erythrocytes were calculated.
Assay data were analysed using Graph pad prism ver.5 software. A variable sigmoid dose response curve is plotted keeping log concentrations at X-axis and % inhibition at Y-axis.

For `CC(=O)N1c2ccccc2[C@@H](c2ccccc2)[C@@H]1C(=O)O` (racemic) [Compound 4a, Rac (2R,3R)-1-acetyl-3-phenylindoline-2-carboxylic acid], the “LEI (NF54)” value was less than 17.7.
With `CC(=O)N1CCN(Cc2coc(Cc3ccccc3)n2)CC1` [Compound 6, 1-(4-((2-benzyloxazol-4-yl)methyl)piperazin-1-yl)ethanone] the “LEI (NF54)” value was less than 16.7.
For `O=C(O)[C@@H]1Cc2c([nH]c3ccccc23)[C@H](c2ccc(Cl)cc2Cl)N1` [Compound 14a, (1S,3S)-1-(2,4-dichlorophenyl)-2,3,4,9-tetrahydro-1H-pyrido[3,4-b]indole-3-carboxylic acid], the “LEI (NF54)” value was less than 13.8.
In the case of `O=C(O)[C@H]1Cc2c([nH]c3ccccc23)[C@H](c2ccc(Cl)cc2Cl)N1` [Compound 14d], the “LEI (NF54)” value is reported as less than 13.8.

Going from `Cc1c(CO)c2ccccc2n1Cc1ccccc1C#N` [Compound 1, 2-((3-(hydroxymethyl)-2-methyl-1H-indol-1-yl)methyl)benzonitrile] to `Cc1c(Cc2c(C)n(Cc3ccccc3C#N)c3ccccc23)c2ccccc2n1Cc1ccccc1C#N` [Compound 2, 2,2'-((3,3'-methylenebis(2-methyl-1H-indole-3,1-diyl))bis(methylene))dibenzonitrile], the “LEI (NF54)” value falls from 19.2 to 12.1.

Compared with `CC(C)(C)CC(=O)N(Cc1ccc(NC(=O)c2ccc(C#N)cc2)cc1)CC(C)(C)CN` [Compound 3, N-(4-((N-(3-amino-2,2-dimethylpropyl)-3,3-dimethylbutanamido)methyl)phenyl)-4-cyanobenzamide], `Cc1ccc(S(=O)(=O)N2C[C@H](C)N(Cc3ccc(C(=O)NC4CC4)cc3)C[C@@H]2C)cc1` [Compound 15a] is higher in “LEI (NF54)” value: 12.7 for the first, 16.7 for the second.

Going from `COc1ccc(NC(=O)c2cnn(-c3ccccc3)c2-c2ccccc2)c(OC)c1` [Compound 5, N-(2,4-dimethoxyphenyl)-1,5-diphenyl-1H-pyrazole-4-carboxamide] to `COc1ccc2c(c1)C1(Nc3ccccc3-c3nc4ccccc4n31)C(=O)N2` (stereo not drawn) [Compound 12, 5'-methoxy-5H-spiro[benzo[4,5]imidazo[1,2-c]quinazoline-6,3'-indolin]-2'-one], the “LEI (NF54)” value rises from 13.5 to 19.6.

Going from `O=C(Nc1cc(=O)[nH]c2nc(-c3ccccc3)nn12)C1CCCCC1` [Compound 7, N-(5-oxo-2-phenyl-4,5-dihydro-[1,2,4]triazolo[1,5-a]pyrimidin-7-yl)cyclohexanecarboxamide] to `O=C(c1cccc(-c2noc(CN(CCN3CCCCC3)C(=O)c3ccccc3)n2)c1)N1CCCNCC1` [Compound 10, N-((3-(3-(1,4-diazepane-1-carbonyl)phenyl)-1,2,4-oxadiazol-5-yl)methyl)-N-(2-(piperidin-1-yl)ethyl)benzamide], the “LEI (NF54)” value falls from 18.8 to 14.0.

Compared with `CCOc1ncccc1C(=O)Nc1cc(C(F)(F)F)ccc1Oc1cccc(OC)c1` [Compound 9, 2-ethoxy-N-(2-(3-methoxyphenoxy)-5-(trifluoromethyl)phenyl)nicotinamide], `O=C(NCC(c1ccsc1)N1CCCCCC1)c1ccc(C(F)(F)F)cc1` (stereo not drawn) [Compound 11, N-(2-(azepan-1-yl)-2-(thiophen-3-yl)ethyl)-4-(trifluoromethyl)benzamide] is higher in “LEI (NF54)” value: 15.1 for the first, 15.9 for the second.

First: Cc1csc(Sc2ncnc3sccc23)n1 [Compound 13, 4-((4-methylthiazol-2-yl)thio)thieno[2,3-d]pyrimidine]
Second: O=C(O)[C@H]1Cc2c([nH]c3ccccc23)[C@@H](c2ccc(Cl)cc2Cl)N1 [Compound 14c]
The “LEI (NF54)” value of the first is higher: 26.3 for the first, 14.9 for the second.

First: Cc1ccc(S(=O)(=O)N2C[C@@H](C)N(Cc3ccc(C(=O)NC4CC4)cc3)C[C@H]2C)cc1 [Compound 15b]
Second: Cc1ccc(S(=O)(=O)N2CCN(Cc3ccc(C(=O)NC4CC4)cc3)CC2)cc1 [Compound 15c, N-cyclopropyl-4-((4-tosylpiperazin-1-yl)methyl)benzamide]
The “LEI (NF54)” value of the first is lower: 14.0 for the first, 15.2 for the second.
